Measured values from several laboratories, pooled; numbers as filed in NIAID ChemDB.

All rows: whole-cell or culture tests; species: Herpes simplex virus 1; measure: EC50

ECn is the concentration giving n% inhibition of infection, replication or growth. Lines come from different laboratories, so protocols vary. Blank or dashed fields: not listed here. a–b is a range or a potency band.

| smiles | strain | cells | value |
|---|---|---|---|
| CCCCCCCCCCCCCCCCCCOCCOP(=O)(O)CCCOCn1cnc2c(=O)[nH]c(N)nc21 |  | MRC-5 | 0.048 µM |
| [N-]=[N+]=N[C@H]1C[C@H](CO)S[C@@H]1n1ccc(=O)[nH]c1=O |  |  | >100 µg/mL |
| CC(=O)OCCOCN1C=CC(=O)N(COCCOC(C)=O)S1(=O)=O | B206 (TK-) | E6SM | >400 µg/mL |
| O=C(c1ccncc1)n1c(-c2cccc([N+](=O)[O-])c2)nc2ccccc21 | KOS |  | >100 µg/mL |
| Nc1nc2c(ncn2COCCOC(=O)C(N)Cc2ccccc2)c(=O)[nH]1 | SC16 | VERO | 0.93 µM |
| Nc1nc2c(ncn2[C@@H]2C[C@H](CO)[C@H]2CO)c(=O)[nH]1 |  |  | 0.01–0.1 µM |
| Cc1cn(CC2(OCP(=O)(O)O)CC2)c(=O)[nH]c1=O |  | HEPG2 2.2.17 | >30 µM |
| O=C(c1ccccc1Br)n1c(-c2ccc([N+](=O)[O-])cc2)nc2ccccc21 | KOS |  | >100 µg/mL |
| NCC(=O)OCCOCn1cnc2c(=O)[nH]c(N)nc21 | SC16 | VERO | 1.7 µM |
| [N-]=[N+]=N[C@@H]1C[C@@H](CO)S[C@@H]1n1ccc(=O)[nH]c1=O |  |  | >100 µg/mL |
| NCCC(=O)OCCOCn1cnc2c(=O)[nH]c(N)nc21 | SC16 | VERO | 10.5 µM |
| O=C(c1ccc([N+](=O)[O-])cc1)n1c(-c2ccc([N+](=O)[O-])cc2)nc2ccccc21 | KOS |  | 100 µg/mL |
| CCCCCCCCCCCCCCCCCCOCCCOP1(=O)CO[C@@H](Cn2ccc(N)nc2=O)CO1 |  | MRC-5 | 0.35 µM |
| CCCCCCCC/C=C\CCCCCCCCOCCOP(=O)(O)CCCOCn1cnc2c(=O)[nH]c(N)nc21 |  | MRC-5 | 0.22 µM |
| Nc1nc2c(ncn2[C@@H]2C=C[C@H](CO)CC2)c(=O)[nH]1 |  |  | 0.01–0.1 µM |
| O=C(c1ccncc1)n1c(-c2ccccc2[N+](=O)[O-])nc2ccccc21 | KOS |  | >20 µg/mL |
| Nc1nc(NC2CC2)c2ncn(COCCCP(=O)(O)O)c2n1 |  | MRC-5 | >100 µM |
| OCCCCn1cc(Cn2ncc3c(NCc4ccccc4)ncnc32)nn1 | B2006 (TK-) | E6SM | >400 µg/mL |
| C/C(O)=C1\C(=N)N(COCCO)S(=O)(=O)N=C1N | KOS | E6SM | >400 µg/mL |
| Nc1ccn(C[C@@H](CO)OCP(=O)(O)O)c(=O)n1 |  | MRC-5 | 3.3 µM |
| O=c1cc(-c2ccc(-c3ccccc3)cc2)oc2ccccc12 | A4-3 | VERO | 15 µg/mL |
| Nc1ncnc2c1cnn2Cc1cn(CCCCO)nn1 | KOS | E6SM | >400 µg/mL |
| CCCCCCCCCCCCCCCCOCCCOP(=O)(O)CCCOCn1cnc2c(=O)[nH]c(N)nc21 |  | MRC-5 | 1.8 µM |
| [N-]=[N+]=N[C@H]1C[C@H](CO)S[C@@H]1n1cnc2c(N)ncnc21 |  |  | >100 µg/mL |
| CC(=O)OCCOCN1C=C(C#N)C(N)=NS1(=O)=O | F | E6SM | >400 µg/mL |
| Nc1ncc2c(ncn2COC(CO)CO)n1 |  |  | 0.1–1 µM |
| Nc1nc2c(ncn2[C@@H]2C=C[C@H](CO)[C@@H](O)C2)c(=O)[nH]1 | KOS (TK-) |  | 0.38 µg/mL |
| O=C(c1ccc([N+](=O)[O-])cc1)n1c(-c2cccc([N+](=O)[O-])c2)nc2ccccc21 | KOS |  | >20 µg/mL |
| [N-]=[N+]=N[C@H]1C[C@H](CO)S[C@@H]1n1ccc(N)nc1=O |  |  | >100 µg/mL |
| Cc1nc(N)nc2c1ncn2CC1(OCP(=O)(O)O)CC1 |  | HEPG2 2.2.19 | >30 µM |
| O=C1C=CN(COCCO)S(=O)(=O)N1COCCO | VMW1837 (TK-) | E6SM | >400 µg/mL |
| CSc1ncnc2c1cnn2Cc1cn(CCCCO)nn1 | KOS | E6SM | >400 µg/mL |
| CCOC(=O)C1=CN(COCCOC(C)=O)S(=O)(=O)N=C1N | B206 (TK-) | E6SM | >400 µg/mL |
| CNc1ncnc2c1ncn2[C@H]1S[C@@H](CO)C[C@@H]1N=[N+]=[N-] |  |  | >100 µg/mL |
| C[C@@H](N)C(=O)OCCOCn1cnc2c(=O)[nH]c(N)nc21 | SC16 | VERO | 1.2 µM |
| Nc1nc2c(ncn2[C@H]2C=C[C@@H](CO)CC2)c(=O)[nH]1 |  |  | 0.01–0.1 µM |
| Nc1ncc2ncn(CC3(OCP(=O)(O)O)CC3)c2n1 |  | HEPG2 2.2.16 | >30 µM |
| [N-]=[N+]=N[C@H]1C[C@@H](CO)S[C@H]1n1cnc2c(N)ncnc21 |  |  | >100 µg/mL |
| COc1ccccc1-c1nc2ccccc2n1C(=O)c1ccc([N+](=O)[O-])cc1 | KOS |  | >100 µg/mL |
| [N-]=[N+]=N[C@@H]1C[C@@H](CO)S[C@H]1n1cnc2c(Cl)ncnc21 |  |  | >100 µg/mL |
| CSc1ncnc2c1cnn2Cc1cnnn1CCCCO | VWM1837 | E6SM | >400 µg/mL |
| O=C(c1ccc([N+](=O)[O-])cc1)n1c(-c2ccccc2[N+](=O)[O-])nc2ccccc21 | KOS |  | >100 µg/mL |
| CCOc1nc(N)nc2c1ncn2CC1(OCP(=O)(O)O)CC1 |  | HEPG2 2.2.22 | >30 µM |

The first 3 rows once more:

smiles	strain	cells	value
CCCCCCCCCCCCCCCCCCOCCOP(=O)(O)CCCOCn1cnc2c(=O)[nH]c(N)nc21		MRC-5	0.048 µM
[N-]=[N+]=N[C@H]1C[C@H](CO)S[C@@H]1n1ccc(=O)[nH]c1=O			>100 µg/mL
CC(=O)OCCOCN1C=CC(=O)N(COCCOC(C)=O)S1(=O)=O	B206 (TK-)	E6SM	>400 µg/mL